Compound potency records, mixed from different reports. Data source: NIAID ChemDB in PubChem.

Shared fields: host cell toxicity; cells: HEL; endpoint: CC50

Rows are shuffled and stem from different studies.

compound	result
NC1=NS(=O)(=O)N(Cc2ccccc2)c2nc(-c3ccc(Cl)cc3)[nH]c21	30 µg/mL
O=c1nc2oc(CCCCCCCCCI)cc2cn1[C@H]1C[C@H](O)[C@@H](CO)O1	200 µM
CN1c2ccc(Cl)cc2C(C)(C)C12C=Cc1cc([N+](=O)[O-])ccc1O2	8.9 µM
CCCCCCCCCCCCc1cc2cn([C@H]3C[C@H](O)[C@@H](CO)O3)c(=O)nc2o1	>200 µM
CCCCCCCCC#Cc1c[nH]c(=O)[nH]c1=O	63 µM
CC1=C[C@@H](n2cnc3c(N)ncnc32)[C@H](O)[C@@H]1O	50 µg/mL
C=C[C@@H](O)C1=C[C@@H](n2cnc3c(N)ncnc32)[C@H](O)[C@@H]1O	>50 µg/mL
N#CC1C(c2ccccc2)Nc2sccc2S1(=O)=O	>50 µg/mL
CCCCCCCCCCC#Cc1cn(S(=O)(=O)c2ccc(C)cc2)c(=O)[nH]c1=O	85 µM
C#C[C@@H](O)C1=C[C@@H](n2cnc3c(N)ncnc32)[C@H](O)[C@@H]1O	>50 µg/mL
CCCCC#Cc1c[nH]c(=O)[nH]c1=O	200 µM
CCCCCCCCCCc1cc2cn(C3CCCCC3)c(=O)nc2o1	>200 µM
N#CC1C(c2ccc(Cl)cc2)Nc2c(ccn2Cc2ccccc2)S1(=O)=O	>20 µg/mL
COC(=O)C(C)(C)NP(=O)(OC[C@H]1O[C@@H](n2cc(/C=C/Br)c(=O)[nH]c2=O)C[C@@H]1O)Oc1ccccc1	>200 µM
CCCCCCCCc1cc2cn([C@H]3C[C@H](O)[C@@H](CO)O3)c(=O)nc2o1	>50 µM
CCCCCCCc1cc2cn(C3CCCC3)c(=O)nc2o1	194 µM
Nc1nc(N)c2ncn(C[C@H](CO)OCP(=O)(O)O)c2n1	>150 µM
CCCCc1cc2cn(CCC(C)C)c(=O)nc2o1	>200 µM
C[C@@H](Cn1cnc2c(=O)[nH]c(N)nc21)OCP(=O)(O)O	222 µM
CN1c2ccc([N+](=O)[O-])cc2C(C)(C)C12C=Cc1cc([N+](=O)[O-])ccc1O2	18.5 µM
Nc1ncc2ncn(C[C@@H](CF)OCP(=O)(O)O)c2n1	>600 µM
NC1=NS(=O)(=O)N(Cc2ccccc2)c2nc(Cc3ccccc3)[nH]c21	35 µg/mL
Nc1nc(N)c2ncn(C[C@@H](CF)OCP(=O)(O)O)c2n1	>150 µM
CN1c2ccccc2C(C)(C)C12C=Nc1c(ccc3ccccc13)O2	20.1 µM
C#CCCCCCc1cc2cn([C@H]3C[C@H](O)[C@@H](CO)O3)c(=O)nc2o1	>200 µM
Nc1ncnc2c1ncn2[C@@H]1C=C(CF)[C@H](O)[C@H]1O	200 µg/mL
O=c1nc2oc(CCCCCCCCCOCC3CCCC3)cc2cn1[C@H]1C[C@H](O)[C@@H](CO)O1	>200 µM
C[C@H](Cn1cnc2c(N)nc(N)nc21)OCP(=O)(O)O	>150 µM
CCCCCCCCCCc1cc2cn([C@H]3C[C@H](O)[C@@H](CO)O3)c(=O)nc2s1	54 µM
N#C/C=C/[C@H]1O[C@@H](n2cnc3c(N)ncnc32)[C@H](O)[C@@H]1O	11 µg/mL
CCCCCOCCCCCCCCCc1cc2cn([C@H]3C[C@H](O)[C@@H](CO)O3)c(=O)nc2o1	>200 µM
Nc1nc2c(ncn2CC[C@@H](O)CO)c(=O)[nH]1	800 µM
CN1c2ccc([N+](=O)[O-])cc2C(C)(C)C12C=Cc1ccccc1O2	141.5 µM
CCCCCCC#Cc1c[nH]c(=O)[nH]c1=O	132 µM
CCCCCCCCCCc1cc2cn([C@H]3C[C@H](O)[C@@H](CO)O3)c(=O)nc2o1	>50 µM
Cc1ccc(S(=O)(=O)n2cc(I)c(=O)[nH]c2=O)cc1	131 µM
C=CCCCCCCc1cc2cn([C@H]3C[C@H](O)[C@@H](CO)O3)c(=O)nc2o1	>200 µM
N#CC1C(c2ccccc2)Nc2ccccc2S1(=O)=O	>50 µg/mL
CCCCCCCCCCC#Cc1c[nH]c(=O)[nH]c1=O	>200 µM
CCCCCOc1ccc(-c2cc3cn([C@H]4C[C@H](O)[C@@H](CO)O4)c(=O)nc3o2)cc1	>200 µM
C=CCCCCc1cc2cn([C@H]3C[C@H](O)[C@@H](CO)O3)c(=O)nc2o1	>200 µM
CN1c2ccc(Cl)cc2C(C)(C)C12C=Cc1c(ccc3ccccc13)O2	119.2 µM
CC[C@H](O)C1=C[C@@H](n2cnc3c(N)ncnc32)[C@H](O)[C@@H]1O	>50 µg/mL
COC(=O)[C@H](C)NP(=O)(OC[C@H]1O[C@@H](n2cc(/C=C/Br)c(=O)[nH]c2=O)C[C@@H]1O)Oc1ccccc1	>200 µM
C[C@H](Cn1cnc2c(=O)[nH]c(N)nc21)OCP(=O)(O)O	>150 µM
COCC1=C[C@@H](n2cnc3c(N)ncnc32)[C@H](O)[C@@H]1O	200 µg/mL
C#CCCCc1cc2cn([C@H]3C[C@H](O)[C@@H](CO)O3)c(=O)nc2o1	>200 µM

The last 5 rows once more:

compound | result
CC[C@H](O)C1=C[C@@H](n2cnc3c(N)ncnc32)[C@H](O)[C@@H]1O | >50 µg/mL
COC(=O)[C@H](C)NP(=O)(OC[C@H]1O[C@@H](n2cc(/C=C/Br)c(=O)[nH]c2=O)C[C@@H]1O)Oc1ccccc1 | >200 µM
C[C@H](Cn1cnc2c(=O)[nH]c(N)nc21)OCP(=O)(O)O | >150 µM
COCC1=C[C@@H](n2cnc3c(N)ncnc32)[C@H](O)[C@@H]1O | 200 µg/mL
C#CCCCc1cc2cn([C@H]3C[C@H](O)[C@@H](CO)O3)c(=O)nc2o1 | >200 µM

CCn is the concentration with n% toxicity to the cells.